A mixed list of measured activities; the numbers were collected in NIAID ChemDB.

Shared fields: tests in culture; organism: Mycobacterium avium

MIC50, MIC90 and the like: level of inhibition, or share of isolates inhibited. Rows are shuffled and stem from different studies.

CCCCCCCC(CC(=O)O)c1ccccc1 ; read-out: MIC ; result: >100 µM
N/C(=N\NC(CC(=O)c1ccc(Cl)cc1Cl)c1ccccn1)c1ccccn1 ; read-out: MIC90 ; strain or isolate: 17 strains ; result: 160 µg/mL
COc1ccc2oc(=O)n(-c3ccc(C)cc3)c(=O)c2c1 ; read-out: MIC ; strain or isolate: CNCTC MY330/88 ; result: 125 µM
Cc1ccc(CNC(=O)c2cc(C)ccc2O)cc1 ; read-out: MIC ; strain or isolate: MY330/88 ; result: 62.5 µg/mL
CC(C(=O)O)c1ccccc1 ; read-out: MIC ; result: >100 µM
Oc1cc(Cl)ccc1C(=S)NCc1ccc(Cl)c(Cl)c1 ; read-out: MIC ; strain or isolate: MY330/88 ; result: 16 µg/mL
CCCCCCSc1cc(C(N)=O)cc(SCC)n1 ; read-out: MIC ; strain or isolate: 80/72 ; result: 250 µM
CS(C)=O ; method: resazurin ; read-out: MIC ; strain or isolate: 101 ; result: >1 µg/mL
O=C(O)CCc1ccccc1 ; read-out: MIC ; result: >100 µM
COc1ccccc1NC(=O)OCCC[NH+]1CCCCC1 ; read-out: MIC ; strain or isolate: MY330/88 ; result: 500 µM
CCCCCCCCCCCCCCCCC(C(=O)NN)c1ccccc1 ; read-out: MIC ; result: 50 µM
Cc1ccn2c(C(=O)NCc3ccc(N4CCC(NC(=O)OC(C)(C)C)CC4)c(F)c3)c(C)nc2c1 ; method: resazurin ; read-out: MIC ; strain or isolate: 101 ; result: <2 µM
NCC[C@H](O)C(=O)N[C@@H]1C[C@H](N)[C@@H](O[C@H]2O[C@H](CN)[C@@H](O)[C@H](O)[C@H]2O)[C@H](O)[C@H]1O[C@H]1O[C@H](CO)[C@@H](O)[C@H](N)[C@H]1O ; method: broth dilution ; read-out: MIC ; strain or isolate: IWGMT49 ; result: 8 µg/mL
Cc1ccn2c(C(=O)NCc3ccc(Oc4cccc(C(F)(F)F)c4)cc3)c(C)nc2c1 ; method: resazurin ; read-out: MIC ; strain or isolate: 101 ; result: <2 µM
Oc1cc(Br)ccc1C(=S)NCc1ccc(Br)cc1 ; read-out: MIC ; strain or isolate: MY330/88 ; result: 8 µg/mL
N/C(=N\NC(CC(=O)c1ccccc1)c1ccccn1)c1ccccn1 ; read-out: MIC90 ; strain or isolate: 17 strains ; result: 32 µg/mL
COc1ccc(O)c(C(=S)NCc2cccc(Cl)c2)c1 ; read-out: MIC ; strain or isolate: MY330/88 ; result: 1 µg/mL
O=C(Nc1cccc(Cl)c1)c1ncccc1O ; read-out: MIC ; strain or isolate: CNCTC MY330/88 ; result: 62.5 µM
CCSc1cc(C(N)=O)cc(Cl)n1 ; read-out: MIC ; strain or isolate: 80/72 ; result: 1000 µM
CCCOc1ccc(NC(=O)OCCC[NH+]2CCCCC2)cc1 ; read-out: MIC ; strain or isolate: MY330/88 ; result: 500 µM
N#Cc1ccc(-n2c(=O)oc3ccc(Br)cc3c2=O)cc1 ; read-out: MIC ; strain or isolate: CNCTC MY330/88 ; result: 8 µM
N/C(=N\NC(CC(=O)c1ccc(Cl)cc1)c1ccncc1)c1ccccn1 ; read-out: MIC50 ; strain or isolate: 17 strains ; result: 16 µg/mL
O=c1oc2ccc(F)cc2c(=O)n1-c1cccc(F)c1 ; read-out: MIC ; strain or isolate: CNCTC MY330/88 ; result: 62 µM
O=C(NCc1ccc(Br)cc1)c1ncccc1S ; read-out: MIC ; strain or isolate: CNCTC MY330/88 ; result: 16 µM
CCCCCCCOc1ccc(NC(=O)OCCC[NH+]2CCCCC2)cc1 ; read-out: MIC ; strain or isolate: MY330/88 ; result: 32 µM
Cc1ccn2c(C(=O)NCc3ccc(N4CCOCC4)c(F)c3)c(C)nc2c1 ; method: resazurin ; read-out: MIC ; strain or isolate: 101 ; result: <2 µM
CC(C)(C)c1ccc(CNC(=O)c2ccccc2O)cc1 ; read-out: MIC ; strain or isolate: MY330/88 ; result: 32 µg/mL
CCOc1ccc(NC(=O)OCCC[NH+]2CCCCC2)cc1 ; read-out: MIC ; strain or isolate: MY330/88 ; result: 1000 µM
CCCCCCSc1cc(C(N)=S)cc(SCCCC)n1 ; read-out: MIC ; strain or isolate: 80/72 ; result: 125 µM
Cc1cccc(C(=O)CC(N/N=C(\N)c2ccccn2)c2ccncc2)c1 ; read-out: MIC50 ; strain or isolate: 17 strains ; result: 32 µg/mL
Cc1ccc(O)c(C(=S)NCc2cccc([N+](=O)[O-])c2)c1 ; read-out: MIC ; strain or isolate: MY330/88 ; result: 1 µg/mL
Cc1ccn2c(C(=O)NCc3ccc(N4CCN(c5ccc(C(F)(F)F)cc5)CC4)c(F)c3)c(C)nc2c1 ; mutations: Gentamicin-resistant ; method: resazurin ; read-out: MIC ; strain or isolate: 104 ; result: <0.0078 µg/mL
O=C(Nc1cccc(F)c1)c1ncccc1S ; read-out: MIC ; strain or isolate: CNCTC MY330/88 ; result: 16 µM
N/C(=N\NC(CC(=O)c1ccccc1)c1ccncc1)c1ccccn1 ; read-out: MIC90 ; strain or isolate: 17 strains ; result: 160 µg/mL
CC(C)=CCC/C(C)=C\CC(C(=O)O)c1ccccc1 ; read-out: MIC ; result: 250 µM
CCCCCCCSc1cc(C(N)=S)cc(SCCCCCC)n1 ; read-out: MIC ; strain or isolate: 80/72 ; result: 250 µM
O=C(Nc1cccc(F)c1)c1ccccc1O ; read-out: MIC ; strain or isolate: CNCTC MY330/88 ; result: 62.5 µM
CCCCCCCCC(C(=O)O)c1ccccc1 ; read-out: MIC ; result: >100 µM
CCCCCOc1ccc(NC(=O)OCCC[NH+]2CCCCC2)cc1 ; read-out: MIC ; strain or isolate: MY330/88 ; result: 62.5 µM
O=C(Nc1ccccc1)c1ncccc1O ; read-out: MIC ; strain or isolate: CNCTC MY330/88 ; result: 125 µM
Cc1cccc(O)c1C(=O)NCc1ccccc1 ; read-out: MIC ; strain or isolate: MY330/88 ; result: 62.5 µg/mL
N/C(=N\NC(CC(=O)c1ccc(-c2ccccc2)cc1)c1ccccn1)c1ccccn1 ; read-out: MIC50 ; strain or isolate: 17 strains ; result: 64 µg/mL
Cc1ccc(CNC(=S)c2ccc([N+](=O)[O-])cc2O)cc1 ; read-out: MIC ; strain or isolate: MY330/88 ; result: >125 µg/mL
COc1cccc(NC(=O)OCCC[NH+]2CCCCC2)c1 ; read-out: MIC ; strain or isolate: MY330/88 ; result: 500 µM
N/C(=N\NC(CC(=O)c1cccc(Cl)c1)c1ccccn1)c1ccccn1 ; read-out: MIC50 ; strain or isolate: 17 strains ; result: 32 µg/mL
CCCCSc1cc(C(N)=S)cc(Br)n1 ; read-out: MIC ; strain or isolate: 80/72 ; result: 250 µM
O=c1oc2ccc(Cl)cc2c(=O)n1-c1ccc([N+](=O)[O-])cc1 ; read-out: MIC ; strain or isolate: CNCTC MY330/88 ; result: 8 µM
N/C(=N\NC(CC(=O)c1ccc(Cl)c(Cl)c1)c1ccncc1)c1ccccn1 ; read-out: MIC90 ; strain or isolate: 17 strains ; result: 32 µg/mL

A second listing of 4 rows from above:

{"smiles": "O=C(NCc1ccc(Br)cc1)c1ncccc1S", "read-out": "MIC", "strain or isolate": "CNCTC MY330/88", "result": "16 µM"}
{"smiles": "COc1ccc(O)c(C(=S)NCc2cccc(Cl)c2)c1", "read-out": "MIC", "strain or isolate": "MY330/88", "result": "1 µg/mL"}
{"smiles": "O=C(Nc1cccc(F)c1)c1ncccc1S", "read-out": "MIC", "strain or isolate": "CNCTC MY330/88", "result": "16 µM"}
{"smiles": "CCCCCCSc1cc(C(N)=S)cc(SCCCC)n1", "read-out": "MIC", "strain or isolate": "80/72", "result": "125 µM"}